Compound potency records, mixed from different reports. Data source: NIAID ChemDB in PubChem.

Shared fields: growth or infection tests; organism: Vaccinia virus; endpoint: EC50

An empty or dashed field is not shown. Neighbouring rows are from separate reports. ECn: concentration that inhibits the pathogen or its effect by n%.

{"structure": "COC(=O)[C@]1(C)CCC[C@]2(C)c3cc4cc[nH]c4cc3CCC12", "cells": "E6SM", "result": ">4 µg/mL"}
{"structure": "Nc1nccc2c1ncn2[C@H]1CC[C@@H](CO)O1", "cells": "VERO", "result": ">429 µM"}
{"structure": "N#CC1=CN(COCCO)S(=O)(=O)N=C1N", "cells": "E6SM", "result": ">400 µg/mL"}
{"structure": "Cn1ccnc1-c1cn([C@H]2C[C@H](O)[C@@H](CO)O2)c(=O)[nH]c1=O", "cells": "HEL", "result": ">200 µg/mL"}
{"structure": "CCCCCCCCCCCCCCCC(=O)OC[C@H]1O[C@H](OC(=O)NS(=O)(=O)OC[C@H]2O[C@@H](n3ccc(=O)[nH]c3=O)[C@H](OC(C)C)[C@@H]2OC(C)C)[C@H](OC(=O)CCCCCCCCCCCCCCC)[C@@H](OC(=O)CCCCCCCCCCCCCCC)[C@@H]1OC(=O)CCCCCCCCCCCCCCC", "cells": "VERO", "result": ">100 µg/mL"}
{"structure": "O=C(CCl)NCc1cn([C@H]2C[C@H](O)[C@@H](CO)O2)c(=O)[nH]c1=O", "cells": "HSF", "result": "100 µg/mL"}
{"structure": "CC(=O)OC[C@H]1O[C@@H](OC(=O)NS(=O)(=O)OC[C@H]2O[C@@H](n3ccc(=O)[nH]c3=O)[C@H](OC(C)C)[C@@H]2OC(C)C)[C@@H](OC(C)=O)[C@@H](OC(C)=O)[C@@H]1OC(C)=O", "cells": "VERO", "result": ">100 µg/mL"}
{"structure": "N=c1ncn(Cc2cccc([N+](=O)[O-])c2)c2nc[nH]c12", "cells": "BSC-1", "result": ">12 µg/mL"}
{"structure": "CC(C)OC1[C@H](n2ccc(=O)[nH]c2=O)O[C@H](COS(=O)(=O)NC(=O)N[C@@H]2O[C@H](COC(=O)c3ccccc3)[C@@H](OC(=O)c3ccccc3)[C@H](OC(=O)c3ccccc3)[C@H]2OC(=O)c2ccccc2)[C@H]1OC(C)C", "cells": "VERO", "result": "50 µg/mL"}
{"structure": "CC(=O)OCCOCN1C=C(C#N)C(N)=NS1(=O)=O", "cells": "E6SM", "result": ">400 µg/mL"}
{"structure": "Cc1ccc(Cn2cnc(=N)c3[nH]cnc32)cc1", "cells": "BSC-1", "result": ">50 µg/mL"}
{"structure": "CC(C)(C)c1cn([C@H]2C[C@H](O)[C@@H](CO)O2)c(=O)[nH]c1=O", "cells": "E6SM", "result": "850 µM"}
{"structure": "COc1ccc(N2CCN(CC(=O)N/N=C/c3c4c(O)c5c(O)c(C)c6c(c5c3O)C(=O)[C@@](C)(O/C=C/[C@H](OC)[C@@H](C)[C@@H](OC(C)=O)[C@H](C)[C@H](O)[C@H](C)[C@@H](O)[C@@H](C)/C=C/C=C(/C)C(=O)N4)O6)CC2)cc1", "cells": "L929", "result": ">50 µg/mL"}
{"structure": "O=c1[nH]c(=O)n([C@H]2C[C@H](O)[C@@H](CO)S2)cc1C1CCCCC1", "cells": "E6SM", "result": "720 µM"}
{"structure": "Nc1nccc2c1nnn2[C@H]1C[C@H](O)[C@@H](CO)O1", "cells": "VERO", "result": ">396 µM"}
{"structure": "Nc1ccn([C@@H]2O[C@H](CO)[C@@H](O)[C@@H]2O)c(=O)n1", "cells": "Primary rabbit kidney cells", "result": "0.04 µg/mL"}
{"structure": "CC(=O)N1C(=O)C(=Nc2ccc(S(=O)(=O)Nc3nc(C)cc(C)n3)cc2)c2ccccc21", "cells": "HFF", "result": "40 µM"}
{"structure": "O=c1[nH]c(=O)n([C@H]2C[C@H](O)[C@@H](CO)O2)cc1-c1ccc(Br)o1", "cells": "HEL", "result": "70 µg/mL"}
{"structure": "Nc1ncnc2c1ncn2[C@@H]1O[C@H](COP(=O)(O)O[C@@H]2[C@H](O)[C@@H](COP(=O)(O)O[C@@H]3[C@H](O)[C@@H](COP(=O)(O)OP(=O)(O)OC[C@@H]4OC(O)[C@H](O)[C@H](O)[C@H]4O)O[C@H]3n3cnc4c(N)ncnc43)O[C@H]2n2cnc3c(N)ncnc32)[C@@H](O)[C@H]1O", "cells": "PRK", "result": "100 µg/mL"}
{"structure": "CC(C)O[C@@H]1[C@H](OC(C)C)[C@@H](COS(=O)(=O)NC(=O)O[C@@H]2C[C@@H](OC(=O)c3ccccc3)[C@H](OC(=O)c3ccccc3)[C@@H](COC(=O)c3ccccc3)O2)O[C@H]1n1ccc(=O)[nH]c1=O", "cells": "VERO", "result": "75 µg/mL"}
{"structure": "OC[C@H]1O[C@@H](n2nnc3c(Cl)nccc32)C[C@@H]1O", "cells": "VERO", "result": ">368 µM"}
{"structure": "COC(=O)[C@]1(C)CCC[C@]2(C)c3ccc4[nH]cnc4c3CCC12", "cells": "E6SM", "result": ">4 µg/mL"}
{"structure": "COc1cc(F)c([C@H]2C[C@H](O)[C@@H](CO)O2)cc1[N+](=O)[O-]", "cells": "E6SM", "result": ">400 µg/mL"}
{"structure": "O=Cc1cn([C@H]2C[C@H](O)[C@@H](CO)O2)c(=O)[nH]c1=O", "cells": "HSF", "result": "0.1 µg/mL"}
{"structure": "O=c1[nH]c(=O)n([C@H]2C[C@H](O)[C@@H](CO)O2)cc1I", "cells": "PRK", "result": "0.1 µg/mL"}
{"structure": "CC1(C)[C@@H](CO)CC[C@@]1(C)Cn1cc(I)c(=O)[nH]c1=O", "cells": "E6SM", "result": ">400 µg/mL"}
{"structure": "O=c1[nH]c(=O)n([C@H]2C[C@H](O)[C@@H](CO)O2)cc1-c1ccc(Cl)o1", "cells": "HEL", "result": "45 µg/mL"}
{"structure": "CCc1cn([C@H]2C[C@H](O)[C@@H](CO)O2)c(=O)[nH]c1=O", "cells": "Primary rabbit kidney cells", "result": "1 µg/mL"}
{"structure": "Nc1ncnc2c1nc(Cl)n2[C@@H]1O[C@@H]2COP(=O)(O)O[C@H]2[C@H]1O", "cells": "VERO", "result": "32 µM"}
{"structure": "O=c1[nH]cnc2c1cnn2Cc1cn(CCCCO)nn1", "cells": "E6SM", "result": ">400 µg/mL"}
{"structure": "Nc1ncnc2c1ncn2[C@@H]1O[C@H](COP(=O)(O)O)[C@@H](O)[C@H]1O", "cells": "E6SM", "result": "300 µg/mL"}
{"structure": "CC1(C)[C@@H](CO)CC[C@@]1(C)Cn1cnc2c(=O)[nH]cnc21", "cells": "E6SM", "result": ">400 µg/mL"}
{"structure": "N=c1ncn(Cc2ccc(Cl)cc2Cl)c2nc[nH]c12", "cells": "BSC-1", "result": ">12 µg/mL"}
{"structure": "OC[C@H]1O[C@H](c2cc(I)c(F)cc2F)C[C@@H]1O", "cells": "E6SM", "result": ">400 µg/mL"}
{"structure": "Nc1[nH]c(=O)ncc1F", "cells": "VERO", "result": ">5000 µM"}
{"structure": "O=c1[nH]c(=O)n([C@H]2C[C@H](O)[C@@H](CO)O2)cc1C1CC1", "cells": "E6SM", "result": "35 µM"}
{"structure": "CC(=O)OC[C@H]1O[C@H](OC(=O)NS(=O)(=O)OC[C@H]2O[C@@H](n3ccc(=O)[nH]c3=O)[C@H](OC(C)C)[C@@H]2OC(C)C)[C@H](OC(C)=O)[C@@H](OC(C)=O)[C@@H]1OC(C)=O", "cells": "VERO", "result": ">100 µg/mL"}
{"structure": "CC(C)(C)c1cn([C@H]2C[C@H](O)[C@@H](CO)S2)c(=O)[nH]c1=O", "cells": "E6SM", "result": ">1500 µM"}
{"structure": "Nc1nc(N)c(Cl)c(OCCOCP(=O)(O)O)n1", "cells": "E6SM", "result": ">1200 µM"}
{"structure": "CN(C)Cc1cn([C@H]2C[C@H](O)[C@@H](CO)O2)c(=O)[nH]c1=O", "cells": "PRK", "result": ">200 µg/mL"}
{"structure": "CC(=O)OC[C@H]1O[C@H](OC(=O)NS(=O)(=O)OC[C@H]2O[C@@H](n3ccc(=O)[nH]c3=O)[C@H](OC(C)C)[C@@H]2OC(C)C)[C@@H](OC(C)=O)[C@@H](OC(C)=O)[C@@H]1OC(C)=O", "cells": "VERO", "result": ">100 µg/mL"}
{"structure": "O=c1[nH]c(=O)n([C@H]2C[C@H](O)[C@@H](COP(=O)(O)O)O2)cc1I", "cells": "PRK", "result": "0.07 µg/mL"}
{"structure": "COC(=O)[C@]1(C)CCC[C@]2(C)c3cc(Br)c4nc(C)[nH]c4c3CCC12", "cells": "E6SM", "result": ">4 µg/mL"}
{"structure": "CSc1ncnc2c1cnn2Cc1cn(CCCCO)nn1", "cells": "E6SM", "result": ">400 µg/mL"}
{"structure": "Nc1nc(=O)n([C@@H]2OC3COP(=O)([O-])OC3[C@H]2O)cc1F", "cells": "VERO", "result": "290 µM"}
{"structure": "O=c1[nH]c(=O)n([C@H]2C[C@H](O)[C@@H](CO)O2)cc1CN1CCCC1", "cells": "HSF", "result": "≥200 µg/mL"}
{"structure": "O=c1[nH]c(=O)n([C@@H]2C[C@H](O)[C@@H](CO)O2)cc1-c1cccs1", "cells": "HEL", "result": ">200 µg/mL"}
{"structure": "CO[C@H]1/C=C/O[C@@]2(C)Oc3c(C)c(O)c4c(O)c(c(/C=N/NC(=O)CN5CCN(c6ccc(Cl)cc6)CC5)c(O)c4c3C2=O)NC(=O)/C(C)=C\\C=C\\[C@H](C)[C@H](O)[C@@H](C)[C@@H](O)[C@@H](C)[C@H](OC(C)=O)[C@@H]1C", "cells": "L929", "result": ">50 µg/mL"}
{"structure": "Nc1nc2c(ncn2[C@H]2COC[C@@H](CO)O2)c(=O)[nH]1", "cells": "L1210", "result": ">30 µM"}
{"structure": "CC(C)O[C@@H]1[C@H](OC(C)C)[C@@H](COS(=O)(=O)NC(=O)O[C@H]2O[C@H](COCc3ccccc3)[C@H](OCc3ccccc3)[C@H](OCc3ccccc3)[C@H]2OCc2ccccc2)O[C@H]1n1ccc(=O)[nH]c1=O", "cells": "VERO", "result": "150 µg/mL"}
{"structure": "Nc1cc(OCCOCP(=O)(O)O)nc(N)n1", "cells": "E6SM", "result": "180 µM"}
{"structure": "Nc1nccc2c1ncn2[C@@H]1CC[C@@H](O)[C@H]1O", "cells": "L929", "result": "0.13 µM"}
{"structure": "Cc1cc(C)nc(NS(=O)(=O)c2ccc(N=C3C(=O)Nc4ccc(Cl)cc43)cc2)n1", "cells": "HFF", "result": ">300 µM"}
{"structure": "CCn1cnc(=N)c2[nH]cnc21", "cells": "BSC-1", "result": ">100 µg/mL"}
{"structure": "Nc1cc([C@H]2C[C@H](O)[C@@H](CO)O2)c(F)cc1F", "cells": "E6SM", "result": ">400 µg/mL"}
{"structure": "CO[C@H]1/C=C/O[C@@]2(C)Oc3c(C)c(O)c4c(O)c(c(/C=N/NC(=O)CN5CCN(c6ccccc6)CC5)c(O)c4c3C2=O)NC(=O)/C(C)=C\\C=C\\[C@H](C)[C@H](O)[C@@H](C)[C@@H](O)[C@@H](C)[C@H](OC(C)=O)[C@@H]1C", "cells": "L929", "result": ">50 µg/mL"}
{"structure": "OC[C@H]1O[C@@H](c2cc(Cl)c(F)cc2F)C[C@@H]1O", "cells": "E6SM", "result": ">400 µg/mL"}
{"structure": "Cc1ccc2c(c1)C(=Nc1ccc(S(=O)(=O)Nc3nc(C)cc(C)n3)cc1)C(=O)N2", "cells": "HFF", "result": "18 µM"}
{"structure": "CC(C)O[C@@H]1[C@H](OC(C)C)[C@@H](COS(=O)(=O)NC(=O)O[C@H]2O[C@H](COC(=O)c3ccccc3)[C@@H](OC(=O)c3ccccc3)[C@H](OC(=O)c3ccccc3)[C@H]2OC(=O)c2ccccc2)O[C@H]1n1ccc(=O)[nH]c1=O", "cells": "VERO", "result": "20 µg/mL"}
{"structure": "CSc1ncnc2c1cnn2Cc1cnnn1CCCCO", "cells": "E6SM", "result": ">400 µg/mL"}
{"structure": "N#CSc1cn([C@@H]2O[C@H](CO)[C@@H](O)[C@H]2O)c(=O)[nH]c1=O", "cells": "PRK", "result": "40 µg/mL"}
{"structure": "CC1(C)[C@@H](CO)CC[C@@]1(C)Cn1nnc2c(Cl)ncnc21", "cells": "E6SM", "result": ">400 µg/mL"}
{"structure": "N#CSc1cn([C@@H]2O[C@H](CO)[C@@H](O)[C@@H]2O)c(=O)[nH]c1=O", "cells": "PRK", "result": "40 µg/mL"}
{"structure": "O=C1C=CN(COCCO)S(=O)(=O)N1COCCO", "cells": "E6SM", "result": ">400 µg/mL"}
{"structure": "O=c1[nH]c(=O)n([C@H]2C[C@H](O)[C@@H](CO)O2)cc1-c1ccc(Cl)s1", "cells": "HEL", "result": ">200 µg/mL"}
{"structure": "CO[C@H]1/C=C/O[C@@]2(C)Oc3c(C)c(O)c4c(O)c(c(/C=N/NC(=O)CN5CCN(c6ccc(NC(C)=O)cc6)CC5)c(O)c4c3C2=O)NC(=O)/C(C)=C\\C=C\\[C@H](C)[C@H](O)[C@@H](C)[C@@H](O)[C@@H](C)[C@H](OC(C)=O)[C@@H]1C", "cells": "L929", "result": ">50 µg/mL"}
{"structure": "CC(=O)OCCOCN1C=CC(=O)NS1(=O)=O", "cells": "E6SM", "result": ">400 µg/mL"}
{"structure": "Nc1nccc2nnn([C@@H]3O[C@H](CO)[C@@H](O)[C@H]3O)c12", "cells": "VERO", "result": ">398 µM"}
{"structure": "CC(C)CS[C@@H]1C=C[C@H](n2cnc3c(N)ncnc32)C1", "cells": "E6SM", "result": ">16 µg/mL"}
{"structure": "CC(=O)OCCOCN1C(=O)C=CN(COCCO)S1(=O)=O", "cells": "E6SM", "result": ">400 µg/mL"}
{"structure": "CCCCCCCCCCCCCCCCCCOCCOP(=O)(O)COCCn1cnc2c(=O)[nH]c(N)nc21", "cells": "HFF", "strain": "Copenhagen", "result": "0.013 µM"}
{"structure": "CCCc1cn([C@H]2C[C@H](O)[C@@H](CO)O2)c(=O)[nH]c1=O", "cells": "E6SM", "result": "890 µM"}
{"structure": "COC(=O)[C@]1(C)CCC[C@]2(C)c3ccc4nc(-c5ccccc5)c(-c5ccccc5)nc4c3CCC12", "cells": "E6SM", "result": ">4 µg/mL"}

The last 7 rows once more:

structure | cells | strain | result
CC(=O)OCCOCN1C=CC(=O)NS1(=O)=O | E6SM | - | >400 µg/mL
Nc1nccc2nnn([C@@H]3O[C@H](CO)[C@@H](O)[C@H]3O)c12 | VERO | - | >398 µM
CC(C)CS[C@@H]1C=C[C@H](n2cnc3c(N)ncnc32)C1 | E6SM | - | >16 µg/mL
CC(=O)OCCOCN1C(=O)C=CN(COCCO)S1(=O)=O | E6SM | - | >400 µg/mL
CCCCCCCCCCCCCCCCCCOCCOP(=O)(O)COCCn1cnc2c(=O)[nH]c(N)nc21 | HFF | Copenhagen | 0.013 µM
CCCc1cn([C@H]2C[C@H](O)[C@@H](CO)O2)c(=O)[nH]c1=O | E6SM | - | 890 µM
COC(=O)[C@]1(C)CCC[C@]2(C)c3ccc4nc(-c5ccccc5)c(-c5ccccc5)nc4c3CCC12 | E6SM | - | >4 µg/mL